Target: Bac-NA^WT (Influenza A virus, UniProt Q6DPL2)
Conditions: IC50 compared with Bac-NA^WT

By UniProt entry, the sequences of proteins in these tests, tags left out. Residues count along the entry.
UniProt Q6DPL2, 63-449 limits assumed: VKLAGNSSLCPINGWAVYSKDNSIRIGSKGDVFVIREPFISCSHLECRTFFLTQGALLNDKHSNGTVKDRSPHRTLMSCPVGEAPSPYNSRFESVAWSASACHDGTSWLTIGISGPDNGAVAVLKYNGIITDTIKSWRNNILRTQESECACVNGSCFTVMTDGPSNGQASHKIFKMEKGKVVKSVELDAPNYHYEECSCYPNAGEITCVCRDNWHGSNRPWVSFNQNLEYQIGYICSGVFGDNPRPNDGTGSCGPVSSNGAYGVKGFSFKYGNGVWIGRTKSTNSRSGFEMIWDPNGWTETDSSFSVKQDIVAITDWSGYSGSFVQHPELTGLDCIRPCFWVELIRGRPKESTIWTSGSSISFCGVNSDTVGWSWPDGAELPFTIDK

Structure (SMILES): Nc1c(S(=O)(=O)O)cc(Nc2cccc(S(=O)(=O)CCOS(=O)(=O)O)c2)c2c1C(=O)c1ccccc1C2=O [RB19, remazol brilliant blue R]
- Fold change: 3.4 × 10^3(1)

— patent US20140194392A1 (priority 2013, published 2014)
